Test results as given in patent publication US7495011B2 (priority 2003, dated 2009).

Test system: SARS virus
Test: Inhibition of SARS virus cytopathic effect in Vero cells (MTT assay)
Type: cell-based, SARS-associated coronavirus

CC1(C)[C@@H](O[C@H]2O[C@H](C(=O)O)[C@@H](O)[C@H](O)[C@H]2O[C@@H]2O[C@H](C(=O)O)[C@@H](O)[C@H](O)[C@H]2O)CC[C@]2(C)[C@H]3C(=O)C=C4[C@@H]5C[C@@](C)(C(=O)O)CC[C@]5(C)CC[C@@]4(C)[C@]3(C)CC[C@@H]12 [Glycyrrhizin, glycyrrhizin]
SI (Selection Index) = CC50/EC50: >66

Cc1c(O)cccc1C(=O)N[C@@H](CSc1ccccc1)[C@H](O)CN1C[C@H]2CCCC[C@H]2C[C@H]1C(=O)NC(C)(C)C [Nelfinavir, nelfinavir]
SI (Selection Index) = CC50/EC50: 301.6
